From patent US6635636B1, “Substituted 6-benzyl-4-oxopyrimidines, process for their preparation and pharmaceutical compositions containing them” (Idenix Pharmaceuticals, Inc., priority 1998, dated 2003)

The compounds below were run on HIV-1 (IIIB strain) (assay: Anti-HIV-1 assay: inhibition of virus-induced cytopathicity in acutely infected MT-4 cells (MTT)). Settings: CC50 (mock-infected cells) / EC50 (HIV-1 in MT-4 cells).
Format: cell-based
Method: Compounds. Compounds were solubilized in DMSO at 200 mM and then diluted into culture medium.
Cells and viruses. MT-4, C8166, H9/IIIB and CEM cells were grown at 37° C. in a 5% CO2 atmosphere in RPMI 1640 medium, supplemented with 10% fetal calf serum (FCS), 100 UI/mL penicillin and 100 μg/mL streptomycin. Cell cultures were checked periodically for the absence of mycoplasma contamination with a MycoTect Kit (Gibco). Human immunodeficiency virus type-1 (HIV-1, IIIB strain) was obtained from supernatants of persistently infected H9/IIIB cells.
Anti-HIV assays. Activity of the compounds against HIV-1 and HIV-2 multiplication in acutely infected cells was based on the inhibition of virus-induced cytopathicity in MT-4 and C8166 cells, respectively. Briefly, 50 μL of culture medium containing 1×10^4 cells were added to each well of flat-bottom microtiter trays containing 50 μl of culture medium with or without various concentrations of the test compounds. Then 20 μL of an HIV suspension containing 100 CCID50 were added. After a 4-day incubation at 37° C., the number of viable cells was determined by the 3-(4,5-dimethylthiazol-[…])-2,5-diphenyltetrazolium bromide (MTT) method. Cytotoxicity of the compounds was evaluated in parallel with their antiviral activity. It was based on the viability of mock-infected cells, as monitored by the MTT method.
`CSCSc1nc(Cc2ccccc2)cc(=O)[nH]1` [MC 1140] was tested, and the “SI: selectivity index, CC50/EC50 ratio” value was >10.
`CSCSc1nc(Cc2c(F)cccc2F)cc(=O)[nH]1` [MC 1161] was tested, and the “SI: selectivity index, CC50/EC50 ratio” value was >250.
In the case of `CCC(C)Nc1nc(C(C)c2c(F)cccc2F)cc(=O)[nH]1` (mixture of isomers) [MC 1192], the “SI: selectivity index, CC50/EC50 ratio” value is reported as 2,150.
`O=c1cc(Cc2c(F)cccc2F)nc(N2CCCCC2)[nH]1` [MC 1194] was tested, and the “SI: selectivity index, CC50/EC50 ratio” value was >10,000.
In the case of `CSCSc1nc(Cc2c(F)cccc2F)c(C)c(=O)[nH]1` [MC 1162], the “SI: selectivity index, CC50/EC50 ratio” value is reported as 250.
In the case of `CCc1c(Cc2c(F)cccc2F)nc(SCSC)[nH]c1=O` [MC 1157], the “SI: selectivity index, CC50/EC50 ratio” value is reported as 454.
With `O=c1cc(Cc2c(F)cccc2F)nc(N2CCCC2)[nH]1` [MC 1196] the “SI: selectivity index, CC50/EC50 ratio” value was >95.
For `Cc1c(C(C)c2c(F)cccc2F)nc(NC2CCCCC2)[nH]c1=O` (racemic) [MC 1181], the “SI: selectivity index, CC50/EC50 ratio” value was 2,231.
For `CC(c1cc(=O)[nH]c(NC2CCCCC2)n1)c1c(F)cccc1F` (racemic) [MC 1180], the “SI: selectivity index, CC50/EC50 ratio” value was 2,545.
In the case of `Cc1c(C(C)c2c(F)cccc2F)nc(SC(C)C)[nH]c1=O` (racemic) [MC 1137], the “SI: selectivity index, CC50/EC50 ratio” value is reported as 28,571.
For `CCCCNc1nc(C(C)c2c(F)cccc2F)cc(=O)[nH]1` (racemic) [MC 1189], the “SI: selectivity index, CC50/EC50 ratio” value was 1,730.
`CCCCNc1nc(C(C)c2c(F)cccc2F)c(C)c(=O)[nH]1` (racemic) [MC 1187] was tested, and the “SI: selectivity index, CC50/EC50 ratio” value was 8,300.
`Cc1c(Cc2c(F)cccc2F)nc(N2CCOCC2)[nH]c1=O` [MC 1205] was tested, and the “SI: selectivity index, CC50/EC50 ratio” value was >4,255.
For `CC(C)Nc1nc(C(C)c2c(F)cccc2F)cc(=O)[nH]1` (racemic) [MC 1191], the “SI: selectivity index, CC50/EC50 ratio” value was 3,830.
`CN(C)c1nc(Cc2c(F)cccc2F)cc(=O)[nH]1` [MC 1182] was tested, and the “SI: selectivity index, CC50/EC50 ratio” value was >4,000.
`O=c1cc(Cc2c(F)cccc2F)nc(N2CCOCC2)[nH]1` [MC 1188] was tested, and the “SI: selectivity index, CC50/EC50 ratio” value was >333.

Same assay, conditions: CC50/EC50 ratio
`CCC(C)Sc1nc(Cc2cccc([N+](=O)[O-])c2)cc(=O)[nH]1` (racemic) [MC 897] was tested, and the “SI (selectivity index, CC50/EC50 ratio)” value was 392.
With `CNc1nc(C(C)c2c(F)cccc2F)cc(=O)[nH]1` (racemic) [MC 1178] the “SI (selectivity index, CC50/EC50 ratio)” value was 964.
In the case of `CCC(C)Sc1nc(Cc2ccccc2C)cc(=O)[nH]1` (racemic) [MC 806], the “SI (selectivity index, CC50/EC50 ratio)” value is reported as >111.
With `CC(C)Sc1nc(Cc2c(F)cccc2F)c(C(C)C)c(=O)[nH]1` [MC 1039] the “SI (selectivity index, CC50/EC50 ratio)” value was >500.
With `CCCCSc1nc(Cc2c(Cl)cccc2Cl)c(C)c(=O)[nH]1` [MC 920] the “SI (selectivity index, CC50/EC50 ratio)” value was >171.
In the case of `CCC(C)Sc1nc(Cc2ccc(OC)cc2)cc(=O)[nH]1` (stereo not drawn) [MC 964], the “SI (selectivity index, CC50/EC50 ratio)” value is reported as 10.5.
With `CCC(c1cc(=O)[nH]c(SC2CCCCC2)n1)c1c(Cl)cccc1Cl` (stereo not drawn) [MC 1003] the “SI (selectivity index, CC50/EC50 ratio)” value was >55.5.
In the case of `CCC(c1ccccc1)c1cc(=O)[nH]c(SC2CCCC2)n1` (racemic) [MC 900], the “SI (selectivity index, CC50/EC50 ratio)” value is reported as >200.
In the case of `CCC(C)Sc1nc(Cc2ccc(F)cc2)cc(=O)[nH]1` (racemic) [MC 889], the “SI (selectivity index, CC50/EC50 ratio)” value is reported as 23.
With `CCC(C)Sc1nc(Cc2ccc(C)cc2)c(C)c(=O)[nH]1` (stereo not drawn) [MC 845] the “SI (selectivity index, CC50/EC50 ratio)” value was 32.
`CCC(c1cc(=O)[nH]c(SC2CCCC2)n1)c1c(F)cccc1F` (stereo not drawn) [MC 1006] was tested, and the “SI (selectivity index, CC50/EC50 ratio)” value was 1,333.
With `Cc1c(Cc2c(Cl)cccc2Cl)nc(SC2CCCC2)[nH]c1=O` [MC 915] the “SI (selectivity index, CC50/EC50 ratio)” value was >111.
With `Cc1c(Cc2c(F)cccc2F)nc(SC2CCCC2)[nH]c1=O` [MC 922] the “SI (selectivity index, CC50/EC50 ratio)” value was >2,500.
`CCC(C)Sc1nc(Cc2ccc(Cl)cc2)cc(=O)[nH]1` (racemic) [MC 859] was tested, and the “SI (selectivity index, CC50/EC50 ratio)” value was 24.
In the case of `CC(c1cc(=O)[nH]c(NC2CCCC2)n1)c1c(F)cccc1F` (stereo not drawn) [MC 1048], the “SI (selectivity index, CC50/EC50 ratio)” value is reported as 2,500.
For `Cc1c(Cc2c(Cl)cccc2Cl)nc(SC2CCCCC2)[nH]c1=O` [MC 917], the “SI (selectivity index, CC50/EC50 ratio)” value was >9.
In the case of `CC(C)Sc1nc(Cc2c(Cl)cccc2Cl)cc(=O)[nH]1` [MC 878], the “SI (selectivity index, CC50/EC50 ratio)” value is reported as >105.
In the case of `O=c1cc(Cc2c(F)cccc2F)nc(NC2CC2)[nH]1` [MC 980], the “SI (selectivity index, CC50/EC50 ratio)” value is reported as >63.
In the case of `CCC(C)Sc1nc(Cc2ccc([N+](=O)[O-])cc2)cc(=O)[nH]1` (racemic) [MC 863], the “SI (selectivity index, CC50/EC50 ratio)” value is reported as 101.
`CCC(C)Oc1nc(Cc2c(F)cccc2F)cc(=O)[nH]1` (racemic) [MC 1114] was tested, and the “SI (selectivity index, CC50/EC50 ratio)” value was 52.
In the case of `CC1CCC(Oc2nc(Cc3ccccc3)cc(=O)[nH]2)CC1C` (mixture of isomers) [MC 508], the “SI (selectivity index, CC50/EC50 ratio)” value is reported as 9.
`CCC(c1cc(=O)[nH]c(SC2CCCCC2)n1)c1c(F)cccc1F` (stereo not drawn) [MC 1014] was tested, and the “SI (selectivity index, CC50/EC50 ratio)” value was 2,600.
For `CCC(C)Sc1nc(Cc2c(F)cccc2F)cc(=O)[nH]1` (stereo not drawn) [MC 848], the “SI (selectivity index, CC50/EC50 ratio)” value was 5,000.
`Cc1ccccc1Cc1cc(=O)[nH]c(SC2CCCC2)n1` [MC 842] was tested, and the “SI (selectivity index, CC50/EC50 ratio)” value was >59.
In the case of `CCC(c1ccccc1)c1cc(=O)[nH]c(SC2CCCCC2)n1` (racemic) [MC 903], the “SI (selectivity index, CC50/EC50 ratio)” value is reported as >154.
In the case of `CCc1c(Cc2c(F)cccc2F)nc(SC(C)CC)[nH]c1=O` (stereo not drawn) [MC 1038], the “SI (selectivity index, CC50/EC50 ratio)” value is reported as >2,000.
With `CC(C)CSc1nc(Cc2c(F)cccc2F)cc(=O)[nH]1` [MC 866] the “SI (selectivity index, CC50/EC50 ratio)” value was 1,300.
For `CC(C)CSc1nc(C(C)c2c(F)cccc2F)cc(=O)[nH]1` (stereo not drawn) [MC 1044], the “SI (selectivity index, CC50/EC50 ratio)” value was >4,000.
In the case of `CCC(c1cc(=O)[nH]c(SC2CCCCC2)n1)c1cccc2ccccc12` (stereo not drawn) [MC 975], the “SI (selectivity index, CC50/EC50 ratio)” value is reported as 94.
`CCC(C)Sc1nc(Cc2ccccc2C)c(C)c(=O)[nH]1` (stereo not drawn) [MC 844] was tested, and the “SI (selectivity index, CC50/EC50 ratio)” value was >118.
With `CCC(C)Sc1nc(Cc2c(Cl)cccc2Cl)cc(=O)[nH]1` (stereo not drawn) [MC 815] the “SI (selectivity index, CC50/EC50 ratio)” value was >1,428.
With `Cc1c([C@@H](C)c2c(F)cccc2F)nc(SC2CCCC2)[nH]c1=O` [MC 1047] the “SI (selectivity index, CC50/EC50 ratio)” value was >22,222.
`Cc1c(Cc2c(F)cccc2F)nc(SCC(C)C)[nH]c1=O` [MC 921] was tested, and the “SI (selectivity index, CC50/EC50 ratio)” value was 640.
In the case of `CCC(c1cc(=O)[nH]c(SC2CCCC2)n1)c1cccc2ccccc12` (stereo not drawn) [MC 973], the “SI (selectivity index, CC50/EC50 ratio)” value is reported as 17.
`CCC(C)Sc1nc(Cc2cccc(Cl)c2)c(C)c(=O)[nH]1` (stereo not drawn) [MC 910] was tested, and the “SI (selectivity index, CC50/EC50 ratio)” value was >208.
`O=c1cc(Cc2ccccc2)nc(SCOCc2ccccc2)[nH]1` [MC 843] was tested, and the “SI (selectivity index, CC50/EC50 ratio)” value was >4.
In the case of `CSc1nc(Cc2c(Cl)cccc2Cl)cc(=O)[nH]1` [MC 877], the “SI (selectivity index, CC50/EC50 ratio)” value is reported as >62.
For `CNc1nc(Cc2c(F)cccc2F)c(C)c(=O)[nH]1` [MC 1168], the “SI (selectivity index, CC50/EC50 ratio)” value was 335.
`CCC(c1cc(=O)[nH]c(SC2CCCC2)n1)c1c(Cl)cccc1Cl` (stereo not drawn) [MC 1002] was tested, and the “SI (selectivity index, CC50/EC50 ratio)” value was 23.4.
For `O=c1cc(Cc2c(Cl)cccc2Cl)nc(SC2CCCCC2)[nH]1` [MC 891], the “SI (selectivity index, CC50/EC50 ratio)” value was >333.
In the case of `CCC(C)Sc1nc(Cc2c(Cl)cccc2Cl)c(C)c(=O)[nH]1` (stereo not drawn) [MC 850], the “SI (selectivity index, CC50/EC50 ratio)” value is reported as >4,000.
For `CCc1c(Cc2c(F)cccc2F)nc(SC(C)C)[nH]c1=O` [MC 1037], the “SI (selectivity index, CC50/EC50 ratio)” value was 326.
With `Cc1c(Cc2c(F)cccc2F)nc(NC2CCCC2)[nH]c1=O` [MC 1050] the “SI (selectivity index, CC50/EC50 ratio)” value was >10,000.
`CC(C)Sc1nc(C(C)c2c(F)cccc2F)cc(=O)[nH]1` (stereo not drawn) [MC 1007] was tested, and the “SI (selectivity index, CC50/EC50 ratio)” value was 3,340.
For `Cc1c(Cc2ccccc2)nc(OC2CC(C)CCC2C)[nH]c1=O` (mixture of isomers) [MC 531], the “SI (selectivity index, CC50/EC50 ratio)” value was 39.
`CCC(c1cc(=O)[nH]c(SC(C)C)n1)c1cccc2ccccc12` (stereo not drawn) [MC 969] was tested, and the “SI (selectivity index, CC50/EC50 ratio)” value was 33.3.
For `CC(c1cc(=O)[nH]c(SC2CCCCC2)n1)c1cccc2ccccc12` (stereo not drawn) [MC 974], the “SI (selectivity index, CC50/EC50 ratio)” value was 321.4.
`COCCNc1nc(Cc2c(F)cccc2F)cc(=O)[nH]1` [MC 1043] was tested, and the “SI (selectivity index, CC50/EC50 ratio)” value was >250.
For `CCC(C)Sc1nc(Cc2ccccc2F)c(C)c(=O)[nH]1` (stereo not drawn) [MC 913], the “SI (selectivity index, CC50/EC50 ratio)” value was 341.
In the case of `CCC(C)Sc1nc(Cc2ccccc2Cl)c(C)c(=O)[nH]1` (stereo not drawn) [MC 909], the “SI (selectivity index, CC50/EC50 ratio)” value is reported as >741.
For `Cc1c(Cc2c(Cl)cccc2Cl)nc(SCC(C)C)[nH]c1=O` [MC 916], the “SI (selectivity index, CC50/EC50 ratio)” value was >166.
In the case of `O=c1cc(Cc2c(F)cccc2F)nc(NC2CCCCC2)[nH]1` [MC 1049], the “SI (selectivity index, CC50/EC50 ratio)” value is reported as 471.
With `CCC(C)Sc1nc(Cc2ccccc2C(F)(F)F)cc(=O)[nH]1` (racemic) [MC 868] the “SI (selectivity index, CC50/EC50 ratio)” value was 6.2.
